Columns and labels:
[1] = Ultrafiltration of the compounds in PBS without protein (filter adhesion); conditions: 50 μM in PBS pH 7.40, 10 kDa filter, no protein
[2] = system: α1-acid glycoprotein (AGP); experiment: Direct fluorescence anisotropy of FAVI without and with AGP; format: binding, human

Row | Compound | recovered after filtration [1] | fluorescence anisotropy r of free FAVI ([2]; absence of AGP) | fluorescence anisotropy r of FAVI with AGP ([2]; presence of 10 equiv. AGP)
1 | NC(=O)c1nc(F)c[nH]c1=O [FAVI, favipiravir] | 100% | 1.8 × 10^−3 ± 4 × 10^−4 | 2.5 × 10^−3 ± 5 × 10^−4
2 | CC(C)C(=O)OC[C@H]1O[C@@H](n2ccc(NO)nc2=O)[C@H](O)[C@@H]1O [MOLNU, molnupiravir] | 78% |  | 

— paper PMC9917862 (International Journal of Molecular Sciences, 2023)
